# B1: single-domain antibody RBD-1-2G (VHH)
# VHH: EVQLVESGGGLVQPGGSLRLSCAASGFSSIVYMGWFRQAPGKGRELVAAIDASGSTTNYPDSVEGRFTISRDNAKRMVYLQMNSLRAEDTAVYYCAIAYFTSPEYVVSQGWGQGTQVTVSS
# notes: also called RBD-1-2G Nb; RBD-1-2G nanobody
# B2: RBD-1-2G-Fc (Fc fusion)
# chain: B1 VHH
# notes: also called bivalent format of RBD-1-2G
# Molecular target: SARS-COV-2 RBD quantum dots (QD608-RBD) (SARS-COV-2, UniProt P0DTC2 319-541)
# Experiment: cell-based or functional assay
row,Binder,"IC50, QD608-RBD endocytosis assay on ACE2-GFP HEK293T cells [nM]"
1,B1,390
2,B2,14

# Source: patent publication US20240401239A1 (US Dept. of Health and Human Services, published 2024)
